# Data: PMC3499629 (Journal of medicinal chemistry, 2012)
# Tests used:
# [1] = molecular target: NC' (Human immunodeficiency virus type 1 group M subtype B, UniProt P12493); settings: read-out: Kd of FSL-2 - NC' interaction; mean ± s.e.m.
# [2] = molecular target: NC' (GST-p2-NC) (HIV-1 NL4-3, UniProt P12493 364-432); experiment: fluorescence polarization
Molecule,Kd [1] [nM],Kd [2] [nM]
3'-6-carboxyfluorescein-labeled SL-2 DNA [FSL-2],324 ± 6,–
GGGGCGACTGGTGAGTACGCCCC (structured_DNA) [FSL-2 (SL-2 DNA tracer)],–,324
